Measured values from several laboratories, pooled; numbers as filed in NIAID ChemDB.

Common to all: growth or infection tests; agent: Mycobacterium tuberculosis

MIC50, MIC90 and the like: level of inhibition, or share of isolates inhibited. Neighbouring rows are from separate reports. MIC bound comes from a single tested concentration. Two numbers with a dash give a range or band. An empty or dashed field is not shown. ECn is the concentration giving n% inhibition of infection, replication or growth. Percent inhibition refers to the dose given; in toxicity tests it is the harm to the cells.

smiles | mutations | read by | read-out | strain | cell line | tested at | value
CCOC(=O)Cn1c(O)c(C2=c3ccccc3=NC2=O)sc1=O |  | BACTEC | MIC bound | H37Rv |  |  | >12.5 µg/mL
N#C/C(=C\c1ccco1)n1nc2ccccc2n1 |  |  | inhibition | H37Rv |  | 12.5 µg/mL | 9%
Cc1ccc(/C(CN2CCN(c3cc4c(cc3F)c(=O)c(C(=O)O)cn4C3CC3)CC2)=N\O)cc1 |  |  | MIC | H37Rv |  |  | >6.25 µg/mL
CCCCS(=O)(=O)Nc1ccc2[nH]c(C(=O)N(CC)CC)c(C)c2c1 |  | resazurin | MIC90 | H37Rv |  |  | >100 µM
NNC(=O)c1ccncc1 | INH RFP resistant | resazurin | MIC90 | Clinical Isolate 16995 |  |  | >40 µg/mL
COC(=O)[C@@H]1[C@H](O)[C@H](C)C(O)[C@H](C)/C=C\C=C(/C)C(=O)Nc2c(C)c(OC(C)=O)c3c(c2O)C(=O)C(C)=C2OCOC(=C23)/C(C)=C/[C@@](C)(O)[C@H](O)[C@@H](C)[C@H]1OC(C)=O |  |  | MIC | ETA-R |  |  | 6.3 µg/mL
CCCCCCN1C(=O)c2cc(Cl)nnc2Oc2ccccc21 |  | BACTEC | inhibition | H37Rv |  | 12.5 µg/mL | 8%
NC(=O)/C(=C\c1ccc(Cl)cc1)n1nc2ccccc2n1 |  |  | inhibition | H37Rv |  | 12.5 µg/mL | 0%
CCCCS(=O)(=O)Nc1ccc2[nH]c(C(=O)OC(C)C)c(C)c2c1 |  | resazurin | MIC90 | H37Rv |  |  | 0.78 µM
Nc1nc2cc(Cl)ccc2n1N |  | BACTEC | inhibition | H37Rv |  | 12.5 µg/mL | 89%
NNC(=O)c1ccncc1 |  | broth dilution | MIC | STR-resistant (ATCC 35820) |  |  | 0.03 µg/mL
COc1cc2nc(Sc3c([N+](=O)[O-])ncn3C)[nH]c2cc1OC |  |  | inhibition | H37Rv |  | 6.25 µg/mL | -14%
CC(Oc1cccc([N+](=O)[O-])c1)C(=O)N/N=C1\CCOc2ccccc21 |  |  | EC50 | H37Rv |  |  | ~40 µg/mL
CCCCS(=O)(=O)Nc1ccc2[nH]c(C(=O)NC(C)(C)c3ccccc3)c(C)c2c1 |  | resazurin | MIC90 | H37Rv |  |  | 3.13 µM
O=[N+]([O-])c1cc2cccc([N+](=O)[O-])c2o1 |  |  | MIC | H37Rv | VERO |  | 1.56 µg/mL
COc1cc2ccc3c4c(OC)cc(OC)c(OC)c4c[n+](C)c3c2cc1OC |  | BACTEC | MIC | H37Rv |  |  | <12.5 µg/mL
CCn1cc(C(=O)O)c(=O)c2cc(F)c(N3CCN(C/C(=N/O)c4ccccc4)CC3)nc21 |  |  | EC50 | H37Rv |  |  | >6.25 µg/mL
CC(=O)Oc1c(C)c2c(O)c3c1C1=C(OCOC1=C(C)C3=O)/C(C)=C/[C@@](C)(O)[C@H](O)[C@@H](C)[C@@H](O)[C@H](C(=O)O)[C@H](O)[C@H](C)C(O)[C@H](C)/C=C\C=C(/C)C(=O)N2 |  |  | MIC | H37Rv | VERO |  | 3.2 µg/mL
COc1ccc([C@@H]2CC3(C[C@H](c4ccc(OC)cc4)N2)N=c2c(c4c5c6c(C)c(O)c4c(O)c2=NC(=O)/C(C)=C\C=C\[C@H](C)[C@H](O)[C@@H](C)[C@H](O)[C@H](C)[C@H](OC(C)=O)[C@H](C)[C@@H](OC)/C=C/O[C@@](C)(O6)C5=O)N3)cc1 |  |  | MIC | ATCC 35822 (isoniazid-resistant) |  |  | 0.02 µg/mL
CO[C@H]1/C=C/O[C@@]2(C)Oc3c(C)c(O)c4c(O)c(c(/C=N/N5CCN(C)CC5)c(O)c4c3C2=O)NC(=O)/C(C)=C\C=C\[C@H](C)[C@H](O)[C@@H](C)[C@@H](O)[C@@H](C)[C@H](OC(C)=O)[C@@H]1C |  |  | Mean MIC | H37Rv |  |  | 0.16 µg/mL
CO[C@H]1/C=C/O[C@@]2(C)Oc3c(C)c(O)c4c(O)c(c5c(c4c3C2=O)NC2(CCNCC2)N=5)=NC(=O)/C(C)=C\C=C\[C@H](C)[C@H](O)[C@@H](C)[C@@H](O)[C@@H](C)[C@H](OC(C)=O)[C@@H]1C |  |  | MIC | ATCC 35820 (streptomycin-resistant) |  |  | 0.02 µg/mL
N[C@@H]1CONC1=O |  |  | Median MIC | H37Rv |  |  | 12.5 µg/mL
NC(=O)c1cnccn1 |  |  | MIC | Isolate 97-58 |  |  | 900 µg/mL
COc1ccc2c(c1)c1c(C)c3cnccc3c(C)c1n2CCCN1C(=O)c2ccccc2C1=O |  | resazurin | MIC | H37Rv | VERO |  | 1.56 µg/mL
CN[C@@H]1[C@@H](O)[C@@H](O[C@@H]2[C@@H](O)[C@H](O[C@H]3O[C@H](CN)CC[C@H]3N)[C@@H](N)C[C@H]2N)OC[C@]1(C)O |  |  | Median MIC | H37Ra |  |  | 8 µg/mL
CO/C(=N\N=C\c1cccc(Cl)c1)c1ccncc1 |  |  | MIC | 16PI |  |  | >20 µg/mL
COc1cc2c(c[n+](C)c3c4cc5c(cc4ccc23)OCO5)c(OC)c1OC |  | BACTEC | MIC | H37Rv |  |  | >12.5 µg/mL
CO[C@H]1/C=C/O[C@@]2(C)Oc3c(C)c(O)c4c(O)c(c(/C=N/N5CCN(C6CCCC6)CC5)c(O)c4c3C2=O)NC(=O)/C(C)=C\C=C\[C@H](C)[C@H](O)[C@@H](C)[C@@H](O)[C@@H](C)[C@H](O)[C@@H]1C |  |  | MBC | Erdman |  |  | 1 µg/mL
CO[C@H]1/C=C/O[C@@]2(C)Oc3c(C)c(O)c4c(O)c(c5c(c4c3C2=O)NC2(CCN(CC(C)C)CC2)N=5)=NC(=O)/C(C)=C\C=C\[C@H](C)[C@H](O)[C@@H](C)[C@@H](O)[C@@H](C)[C@H](OC(C)=O)[C@@H]1C |  |  | MIC | 26 (rifampicin-resistant) |  |  | >2 µg/mL
N[C@@H]1CN(c2c(F)cc3c(=O)c(C(=O)O)cn([C@@H]4C[C@@H]4F)c3c2Cl)CC12CC2 | Gyrase Asp94Asn/Ala90Val | resazurin | MIC | Clinical strain |  |  | 0.625 µg/mL
NC(=O)/C(=C\c1ccccc1)n1nnc2ccccc21 |  |  | EC50 | H37Rv |  |  | >12.5 µg/mL
CC(C)(C)c1ccc(N2CCC3(CCN(Cc4ccc([N+](=O)[O-])o4)CC3)CC2)cc1 | INH RFP resistant | resazurin | MIC90 | Clinical Isolate 16995 |  |  | 2.47 µg/mL
CC1COc2c(N3CCN(C)CC3)c(F)cc3c(=O)c(C(=O)O)cn1c23 |  |  | MIC | H37Rv |  |  | <1 µg/mL
CCn1c(O)c(N=NC(=S)c2ccc3ccccc3n2)c2ccccc21 |  | BACTEC | MIC bound | H37Rv |  |  | >12.8 µg/mL
CC(C)(C)c1cccc(N2CC3CN(Cc4ccc([N+](=O)[O-])o4)CC3C2)c1 |  | resazurin | MIC90 | H37Rv |  |  | <0.016 µg/mL
O=C1c2cc(Cl)nnc2Oc2ccc3ccccc3c2N1CCCC1CCCCC1 |  | BACTEC | inhibition | H37Rv |  | 12.5 µg/mL | 11%
NNC(=O)C(=O)N=Cc1ccc([N+](=O)[O-])o1 |  |  | MIC | PAS-R |  |  | 3.1 µg/mL
CN1c2ccccc2CCC1CCc1ccc2c(c1)OCO2 |  |  | MIC | MT1 |  |  | >100 µg/mL
O=C1c2cc(Cl)nnc2Oc2ccc(Cl)cc2N1CC1CCCCC1 |  | BACTEC | inhibition | H37Rv |  | 12.5 µg/mL | 59%
CSC(=S)N/N=C(/C)c1ccco1 |  |  | MIC | INH-r |  |  | 1.6 µg/mL
CCCCS(=O)(=O)Nc1ccc2[nH]c(C(=O)NC3CCCCC3)c(C)c2c1 |  | resazurin | MIC90 | H37Rv |  |  | 3.13 µM
Cc1nc2cnc(=Nc3ccccc3)nc-2n(-c2ccccc2)c1C |  | BACTEC | inhibition | H37Rv |  | 12.5 µg/mL | 15%
NC(=O)/C(=C\c1ccc(C(F)(F)F)cc1)n1nnc2ccccc21 |  |  | inhibition | H37Rv |  | 12.5 µg/mL | 0%
CCCCS(=O)(=O)Nc1ccc2[nH]c(CNC(C)=O)c(C)c2c1 |  | resazurin | MIC90 | H37Rv |  |  | >100 µM
COc1cc2c(cc1OC)C(OC)N(C)c1c-2ccc2cc3c(cc12)OCO3 |  | BACTEC | inhibition | H37Rv |  | 12.5 µg/mL | 16%
O=[N+]([O-])c1ccc(CN2CC3CN(c4cccc(C(F)(F)F)c4)CC3C2)o1 | INH RFP resistant | resazurin | MIC90 | Clinical Isolate 16995 |  |  | <0.016 µg/mL
CNC(=O)Nc1cccc(C2(C)OCCS2)c1 |  | BACTEC | inhibition | H37Rv |  | 12.5 µg/mL | -17%
CCn1cc(C(=O)O)c(=O)c2cc(F)c(N3CCN(C/C(=N/O)c4ccc(F)cc4)CC3)nc21 |  |  | EC50 | H37Rv |  |  | >6.25 µg/mL
O=C(O)/C(=C\c1ccc(Br)cc1)n1nnc2ccccc21 |  |  | EC50 | H37Rv |  |  | >12.5 µg/mL
Cc1cc(=O)n2c3c(c4c(cc13)c(CN(C)C)cc(=O)n4C)OC2.Cl |  | BACTEC | inhibition | H37Rv |  | 12.5 µg/mL | 54%
O=C(O)/C(=C\c1ccc(Cl)cc1)n1nnc2ccccc21 |  |  | inhibition | H37Rv |  | 12.5 µg/mL | 0%
NCC[C@H](O)C(=O)N[C@@H]1C[C@H](N)[C@@H](O[C@H]2O[C@H](CN)[C@@H](O)[C@H](O)[C@H]2O)[C@H](O)[C@H]1O[C@H]1O[C@H](CO)[C@@H](O)[C@H](N)[C@H]1O |  |  | MIC | TN3187 (W1) |  |  | >256 µg/mL
CCn1cc(C(=O)O)c(=O)c2cc(F)c(N3CCN(CC(=O)c4ccccc4)CC3)cc21 |  |  | MIC | H37Rv | VERO |  | 6.25 µg/mL
COc1c(O)ccc2c1c[n+](C)c1c3cc4c(cc3ccc21)OCO4 |  | BACTEC | inhibition | H37Rv |  | 12.5 µg/mL | 77%
CCOC(=O)NC(=O)c1cn(CC(=O)NCC(=O)NCC(=O)NCCCN2CCN(CCCNC(=O)CNC(=O)CNC(=O)Cn3cc(C(=O)NC(=O)OCC)c(=O)[nH]c3=O)CC2)c(=O)[nH]c1=O |  | resazurin | MIC bound | H37Rv |  |  | >6.25 µg/mL
CC1COc2c(N3CCN(C)CC3)c(F)cc3c(=O)c(C(=O)O)cn1c23 |  |  | MIC | INH resistant (ATCC 35822) |  |  | 0.5–1 µg/mL
CCn1cc(C(=O)O)c(=O)c2ccc(C)nc21 | gyrA mutation A90V |  | MIC90 | BCG |  |  | >50 µM
O=[N+]([O-])c1ccc(CN2CC3CN(c4ccc(C(F)(F)F)cc4)CC3C2)o1 |  | resazurin | MIC90 | H37Rv |  |  | 0.035 µg/mL
COc1cc2c(ccc3c4cc(OC)c(OC)cc4c[n+](C)c23)cc1O |  | BACTEC | inhibition | H37Rv |  | 12.5 µg/mL | 66%
C[C@@H]1CCC([C@@H](C)C(=O)OCCO)[C@]23OO[C@](C)(CCC12)O3 |  | agar | MIC | H37Rv |  |  | 3.12 µg/mL
CO/C(=N\N=C\c1ccc(F)cc1)c1ccncc1 |  |  | MIC | H37Rv |  |  | >20 µg/mL
Cc1ccc(/C=C(\C(N)=O)n2nnc3ccccc32)cc1 |  |  | inhibition | H37Rv |  | 12.5 µg/mL | 0%
O=C1C=C[C@@H](COC2OC(CO)C(O)C(O)C2O)O1 |  |  | MIC | H37Rv | VERO |  | 6.25 µg/mL
CC[C@H]1OC(=O)[C@H](C)[C@@H](O[C@H]2C[C@@](C)(OC)[C@@H](O)[C@H](C)O2)[C@H](C)[C@@H](O[C@@H]2O[C@H](C)C[C@H](N(C)C)[C@H]2O)[C@](C)(OC)C[C@@H](C)C(=O)[C@H](C)[C@@H](O)[C@]1(C)O |  |  | Mean MIC | H37Rv |  |  | 26 µg/mL
COc1ccc(CCc2cc(OC)c3ccccc3n2)cc1OC |  |  | MIC | MT8 |  |  | 12.5 µg/mL
NC(=O)/C(=C\c1ccccc1)n1nc2ccccc2n1 |  |  | EC50 | H37Rv |  |  | >12.5 µg/mL
COc1cc(OC)cc(C2SCC(=O)N2c2nncs2)c1 |  | BACTEC | MIC bound | H37Rv |  |  | >12.5 µg/mL
CCOC(=O)c1cn(C)c2c(cc([N+](=O)[O-])c3cccnc32)c1=O | gyrA mutation S91P |  | MIC90 | H37Rv |  |  | >50 µM
N#Cc1ccc(N2CC3CC2CN3Cc2ccc([N+](=O)[O-])o2)cc1 |  | resazurin | MIC90 | H37Rv |  |  | <0.016 µg/mL
C/C(=N\NC(=O)c1ccncc1)c1cccc(Br)c1 |  |  | MIC | 16PI |  |  | >20 µg/mL
O=C([C@@H](O)CO)N1CC=C(c2c(F)cc(N3C[C@H](COc4ccon4)OC3=O)cc2F)CC1 | T460C Cys154Arg |  | MIC | AZD5847-resistant 8.9 |  |  | 16 µg/mL
Nc1cc([N+](=O)[O-])c2[nH]c(=O)c3ccccc3c2c1 |  |  | MIC | H37Rv |  |  | 1.6 µg/mL
CCCCCCCN1C(=O)c2ccnnc2Oc2ccc3ccccc3c21 |  | BACTEC | EC50 | H37Rv |  |  | >12.5 µg/mL
Nc1nc2nc3c(nc2c(=O)[nH]1)CCCC3 |  | BACTEC | MIC bound | H37Rv |  |  | >12.5 µg/mL
CCn1cc(C(=O)O)c(=O)c2cc(F)c(N3CCNCC3)cc21 |  |  | MIC | H37Rv |  |  | 5 µg/mL
CC1=CC(=C2C=CC(=O)C=C2)C=C(C)N1C |  | BACTEC | inhibition | H37Rv |  | 12.5 µg/mL | 0%
CCCCN1[C@@H](c2ccccc2)CC2(C[C@H]1c1ccccc1)N=c1c(c3c4c5c(C)c(O)c3c(O)c1=NC(=O)/C(C)=C\C=C\[C@H](C)[C@H](O)[C@@H](C)[C@H](O)[C@H](C)[C@H](OC(C)=O)[C@H](C)[C@@H](OC)/C=C/O[C@@](C)(O5)C4=O)N2 |  |  | MIC | H37Rv |  |  | 0.02 µg/mL
CO/C(=N\N=C\c1ccc(OC)c(OC)c1)c1ccncc1 |  |  | MIC | H37Rv |  |  | >20 µg/mL